Experimental findings from patent US20160024159A1, “Potent and selective inhibitors of Nav1.7” (published 2016) are described below.

Some results are limits rather than exact numbers.

The target of one test is human voltage-gated sodium channel Nav1.4 (human), P35499. Briefly: cell-based or functional assay.
For AYCQKWLWTCDSKRACCEGLKCKLWCRKIW (modifications not checked) [CyA-[Nle6; Lys20; Trp29]JzTx-V(1-29)], the PX hNav1.4 Tonic IC50 worked out at 1640 nM.
The same measure, in the same setting: the figure for LVYCQKWLWTCDSKRKCCEGLRCKLWCRKEI (modifications not checked) [Leu-Nva-[Nle6; Lys14; Glu28]JzTx-V(1-29)] is 456 nM.
In the case of AYCQKWLWTCDSKRKCCEGLRCKLWCRKEI (modifications not checked) [CyA-[Nle6; Lys14; Glu28]JzTx-V(1-29)], the PX hNav1.4 Tonic IC50 stood at 545 nM.
The same measure, in the same setting: as for LVYCQKWLWTCDSKRACCKGLRCKLWCRKEI (modifications not checked) [Leu-Nva-[Nle6; Lys17; Glu28]JzTx-V(1-29)], the figure is 190 nM; as for AYCQKWLWTCDSKRACCKGLRCKLWCRKEI (modifications not checked) [CyA-[Nle6; Lys17; Glu28]JzTx-V(1-29)], 327 nM.

Another test concerns the target human Nav1.6 voltage-gated sodium channel (human), Q9UQD0. Put plainly: cell-based or functional assay.
The molecule GYCQKWLWTCDSKRACCKGLRCKLWCRKEI (modifications not checked) [Pra-[Nle6;Lys17;Glu28]JzTx-V(1-29)] showed a PX hNav1.6 Tonic IC50 of 148 nM.
Still for that read-out and setting: as for GYCQKWLWTCDSKRACCEGLKCKLWCRKEI (modifications not checked) [Pra-[Nle6;Lys20;Glu28]JzTx-V(1-29)], the figure is 245 nM.
Same read-out and setting: as for GYCQKWLWTCDSKRACCEGLRCELWCRKEI (modifications not checked) [Pra-[Nle6;Glu22,28]JzTx-V(1-29)], the figure is greater than 10000 nM; as for GYCQKWLWTCDSKRECCEGLRCKLWCRKEI (modifications not checked) [Pra-[Nle6;Glu14,28]JzTx-V(1-29)], 2490 nM.
The molecule GYCQKWLWTCDSKRACCEGERCKLWCRKEI (modifications not checked) [Pra-[Nle6;Glu19,28]JzTx-V(1-29)] returned a PX hNav1.6 Tonic IC50 greater than 10000 nM.

Another test deals with human Nav1.7 voltage-gated sodium channel (human), Q15858. Briefly: cell-based or functional assay.
Consider GYCQKWLWTCDSKRACCKGLRCKLWCRKEI (modifications not checked) [Pra-[Nle6;Lys17;Glu28]JzTx-V(1-29)], for which the PX hNav1.7 Tonic IC50 is 1.42 nM.
Same read-out and setting: as for YCQKWLWTCDSKRGCCEGLECKLWCRKII (modifications not checked) [[Nle6; Pra14; Glu20]JzTx-V(1-29)], the figure is 7.16 nM; as for YCQKWLWTCDSKRGCCEGLECKLWCRKYI (modifications not checked) [[Nle6; Pra14; Glu20; Tyr28]JzTx-V(1-29)], 1.76 nM; as for GYCQKWLWTCDSERACCEGLRCKLWCRKEI (modifications not checked) [Pra-[Nle6; Glu12, 28]JzTx-V(1-29)], 1.73 nM.
The same measure, in the same setting: the figure for AYCQKWLWTCDSKRACCAGLRCKLWCRKEI (modifications not checked) [Homodimeric Conjugate No. 8] is 0.679 nM.
As to KAYCQKWLWTCDSKRKCCEGLRCKLWCRKEI (modifications not checked) [Homodimeric Conjugate No. 9], the PX hNav1.7 Tonic IC50 turned out to be 1.32 nM.
Same read-out and setting: the figure for GYCQKWLWTCDSKRACCEGLKCKLWCRKEI (modifications not checked) [Pra-[Nle6;Lys20;Glu28]JzTx-V(1-29)] is 0.519 nM; for GYCQKWLWTCDSKRACCEGLRCELWCRKEI (modifications not checked) [Pra-[Nle6;Glu22,28]JzTx-V(1-29)] it is 22.6 nM; for YCQKWLWTCDGKRACCEGLECKLWCRKYI (modifications not checked) [[Nle6; Pra11; Glu20; Tyr28]JzTx-V(1-29)] it is 1.28 nM.
Still for that read-out and setting: the figure for GYCQKWLWTCDSKRECCEGLRCKLWCRKEI (modifications not checked) [Pra-[Nle6;Glu14,28]JzTx-V(1-29)] is 0.975 nM.
The same measure, in the same setting: as for GYCQKWLWTCDSKRACCEGERCKLWCRKEI (modifications not checked) [Pra-[Nle6;Glu19,28]JzTx-V(1-29)], the figure is greater than 1000 nM; as for GYCQKWLWTCDEKRACCEGLRCKLWCRKEI (modifications not checked) [Pra-[Nle6; Glu11, 28]JzTx-V(1-29)], 1.58 nM.
YCQKWLWTCDGKRACCEGLECKLWCRKII (modifications not checked) [[Nle6; Pra11; Glu20]JzTx-V(1-29)] gave a PX hNav1.7 Tonic IC50 of 18.4 nM.

A further test addresses human voltage-gated sodium channel Nav1.5 (human), Q14524. Briefly: cell-based or functional assay.
AYCQKWLWTCDSKRACCEGLKCKLWCRKIW (modifications not checked) [CyA-[Nle6; Lys20; Trp29]JzTx-V(1-29)] returned a PX hNav1.5 Tonic IC50 of 9320 nM.
On the same count and under the same terms, as for LVYCQKWLWTCDSKRKCCEGLRCKLWCRKEI (modifications not checked) [Leu-Nva-[Nle6; Lys14; Glu28]JzTx-V(1-29)], the figure is 5030 nM.
Still for that read-out and setting: as for AYCQKWLWTCDSKRKCCEGLRCKLWCRKEI (modifications not checked) [CyA-[Nle6; Lys14; Glu28]JzTx-V(1-29)], the figure is 6990 nM; as for LVYCQKWLWTCDSKRACCKGLRCKLWCRKEI (modifications not checked) [Leu-Nva-[Nle6; Lys17; Glu28]JzTx-V(1-29)], 3270 nM.
On the same count and under the same terms, as for AYCQKWLWTCDSKRACCKGLRCKLWCRKEI (modifications not checked) [CyA-[Nle6; Lys17; Glu28]JzTx-V(1-29)], the figure is 4670 nM.

The next test has as its target human voltage-gated sodium channel Nav1.7 (human), Q15858. Briefly: cell-based or functional assay.
Molecule AYCQKWLWTCDSKRACCEGLKCKLWCRKIW (modifications not checked) [CyA-[Nle6; Lys20; Trp29]JzTx-V(1-29)] came in with a PX hNav1.7 Tonic IC50 of 131 nM.
On the same count and under the same terms, the figure for LVYCQKWLWTCDSKRKCCEGLRCKLWCRKEI (modifications not checked) [Leu-Nva-[Nle6; Lys14; Glu28]JzTx-V(1-29)] is 13.5 nM; for AYCQKWLWTCDSKRKCCEGLRCKLWCRKEI (modifications not checked) [CyA-[Nle6; Lys14; Glu28]JzTx-V(1-29)] it is 6.35 nM.
On the same count and under the same terms, the figure for LVYCQKWLWTCDSKRACCKGLRCKLWCRKEI (modifications not checked) [Leu-Nva-[Nle6; Lys17; Glu28]JzTx-V(1-29)] is 29.6 nM; for AYCQKWLWTCDSKRACCKGLRCKLWCRKEI (modifications not checked) [CyA-[Nle6; Lys17; Glu28]JzTx-V(1-29)] it is 4.83 nM.

The next test has as its target human Nav1.4 voltage-gated sodium channel (human), P35499. Briefly: cell-based or functional assay.
In turn, YCQKWLWTCDSKRKCCEGLECKLWCRKIW (modifications not checked) [[Nle6; Lys(Pra-NPEG11)14; Glu20; Trp29]JzTx-V(1-29)] showed a Nav1.4/Nav1.7 of 5.
In turn, YCQKWLWTCDSKRGCCEGLECKLWCRKII (modifications not checked) [[Nle6; Pra14; Glu20]JzTx-V(1-29)] registered a Nav1.4/Nav1.7 of 232 and a PX hNav1.4 Tonic IC50 of 1660 nM.
On the same counts, the results for YCQKWLWTCDSKRGCCEGLECKLWCRKYI (modifications not checked) [[Nle6; Pra14; Glu20; Tyr28]JzTx-V(1-29)] are 402 and 707 nM.
On the same counts, the results for GYCQKWLWTCDSERACCEGLRCKLWCRKEI (modifications not checked) [Pra-[Nle6; Glu12, 28]JzTx-V(1-29)] are 470 and 811 nM.
AYCQKWLWTCDSKRACCAGLRCKLWCRKEI (modifications not checked) [Homodimeric Conjugate No. 8] showed a PX hNav1.4 Tonic IC50 of 52.6 nM.
On the same count and under the same terms, as for KAYCQKWLWTCDSKRKCCEGLRCKLWCRKEI (modifications not checked) [Homodimeric Conjugate No. 9], the figure is 118 nM.
On to YCQKWLWTCDGKRACCEGLECKLWCRKYI (modifications not checked) [[Nle6; Pra11; Glu20; Tyr28]JzTx-V(1-29)], for which the Nav1.4/Nav1.7 was found to be 643 and the PX hNav1.4 Tonic IC50 amounted to 825 nM.
On the same counts, the results for GYCQKWLWTCDEKRACCEGLRCKLWCRKEI (modifications not checked) [Pra-[Nle6; Glu11, 28]JzTx-V(1-29)] are 241 and 381 nM.
On the same counts, the results for YCQKWLWTCDGKRACCEGLECKLWCRKII (modifications not checked) [[Nle6; Pra11; Glu20]JzTx-V(1-29)] are 230 and 4220 nM.

A further test has as its target human Nav1.5 voltage-gated sodium channel (human), Q14524. Briefly: cell-based or functional assay.
Take YCQKWLWTCDSKRKCCEGLECKLWCRKIW (modifications not checked) [[Nle6; Lys(Pra-NPEG11)14; Glu20; Trp29]JzTx-V(1-29)]: the Nav1.5/Nav1.7 is 12.
In turn, YCQKWLWTCDSKRGCCEGLECKLWCRKII (modifications not checked) [[Nle6; Pra14; Glu20]JzTx-V(1-29)] came in with a Nav1.5/Nav1.7 of 638 and a PX hNav1.5 Tonic IC50 of 4570 nM.
On the same counts, the results for YCQKWLWTCDSKRGCCEGLECKLWCRKYI (modifications not checked) [[Nle6; Pra14; Glu20; Tyr28]JzTx-V(1-29)] are 2100 and 3690 nM.
As to GYCQKWLWTCDSERACCEGLRCKLWCRKEI (modifications not checked) [Pra-[Nle6; Glu12, 28]JzTx-V(1-29)], the Nav1.5/Nav1.7 was greater than 5790 and the PX hNav1.5 Tonic IC50 is greater than 10000 nM.
On to AYCQKWLWTCDSKRACCAGLRCKLWCRKEI (modifications not checked) [Homodimeric Conjugate No. 8], for which the PX hNav1.5 Tonic IC50 came out at 1530 nM.
The same measure, in the same setting: as for KAYCQKWLWTCDSKRKCCEGLRCKLWCRKEI (modifications not checked) [Homodimeric Conjugate No. 9], the figure is 1690 nM.
For YCQKWLWTCDGKRACCEGLECKLWCRKYI (modifications not checked) [[Nle6; Pra11; Glu20; Tyr28]JzTx-V(1-29)], the Nav1.5/Nav1.7 is 1910 and the PX hNav1.5 Tonic IC50 was found to be 2460 nM.
Molecule GYCQKWLWTCDEKRACCEGLRCKLWCRKEI (modifications not checked) [Pra-[Nle6; Glu11, 28]JzTx-V(1-29)] gave a Nav1.5/Nav1.7 greater than 6340 and a PX hNav1.5 Tonic IC50 greater than 10000 nM.
On the same counts, the results for YCQKWLWTCDGKRACCEGLECKLWCRKII (modifications not checked) [[Nle6; Pra11; Glu20]JzTx-V(1-29)] are 193 and 3550 nM.
